Data as given in paper PMC10823771, “Investigating the replacement of carboxylates with carboxamides to modulate the safety and efficacy of platinum(II) thioether cyanide scavengers” (2023).

How the values were obtained:
[1] = Osmolality of formulations
Zebrafish larvae = details: across all pH values (4.3 to 7.6); formulations stored 4-5 days; 50 µM cyanide, 3 h

Substance: bis-(L-S-methylcysteine)-(S,N)platinum(II) dichloride
- Osmolality ([1]; mouse formulation, 291 µmole Pt/m^2, pH 6.5, estimated using the osmolality concentration curve for complex 1): 608^b mmol/kg
- EC100 (Zebrafish larvae): ≤ 15 µM

Substance: bis-(L-S-methylcysteine amide)-(S,N)platinum(II) dichloride
- EC100 (Zebrafish larvae): ≤ 15 µM

Substance: bis-(L-methionine (S,N)platinum(II) dichloride
- Osmolality ([1]; mouse formulation, 261 µmole Pt/m^2, pH 6.5, estimated using the osmolality concentration curve for complex 1): 565^b mmol/kg
- Osmolality ([1]; rat toxicity formulation, 1308 µmole Pt/m^2 (5×), pH 6.5, diluted to reduce osmotic pressure): 487 mmol/kg
- EC100 (Zebrafish larvae): ≤ 15 µM

Marks after values point to notes of the source that are not given here.
